# Tested on: tbaqp2/tbaqp3 null cells expressing TbAQP2WT
# Experiment: Drug sensitivity assay (resazurin)
# Assay type: cell-based, Trypanosoma brucei brucei
# Settings: +AQP2 WT (sensitive control)
smiles,measurement,value
O=[As]c1ccccc1 (stereo not shown),"EC50, percent of AQP2/3 null EC50",104.03%
